Patent US10391068B2 (priority 2012, dated 2019)
pKd: −log10 of the molar value.

The chains behind the UniProt entries cited, without tags or fusion partners. A line that says so, or that is headed by a name, gives the form on record, which may keep a tag or linker.
UniProt P04925, with tags, fused parts or gaps DEL105-125 limits assumed: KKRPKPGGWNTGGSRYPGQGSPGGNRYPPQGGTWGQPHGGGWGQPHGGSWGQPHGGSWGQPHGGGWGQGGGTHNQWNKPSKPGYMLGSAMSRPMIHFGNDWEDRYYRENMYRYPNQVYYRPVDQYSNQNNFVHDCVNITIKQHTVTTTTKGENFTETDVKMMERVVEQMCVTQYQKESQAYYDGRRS

Molecular target: ΔCR PrP (Mus musculus, UniProt P04925, DEL105-125)
Assay: SPR binding to ΔCR PrP
Settings: 17,000 RU ΔCR PrP amine coupled; Langmuir fit

NC(=S)NN=C1C(O)C(O)C(O)C(O)C1O [DS26, 2-(2R,3S,5R,6S-pentahydroxycyclohexylidene)hydrazinecarbothioamide]
pKd: 6.05
